According to ChEMBL document CHEMBL2157983 (Bioorg Med Chem Lett, 2011):

Test system: Trypanosoma brucei
Assay: Activity of Trypanosoma brucei NTR assessed as NADH oxidation per mg of protein
In short: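 Substrate activity reported as the initial velocity of NADH oxidation (nmol/min/mg) with either E. coli nfsB or T. brucei nitroreductase (TbNTR). The reaction was followed by the change in absorbance at 340 nm.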

SMILES: O=C(OCc1ccc([N+](=O)[O-])cc1)N(CCCl)CCCl
- Activity: 1120 nmol/min
